Compound potency records, mixed from different reports. Data source: NIAID ChemDB in PubChem.

Common to all: tests on isolated targets; species: Hepatitis C virus; target: NS5B polymerase; endpoint: IC50

ICn is the concentration giving n% inhibition. Conditions beyond the fields shown may differ between rows. Two numbers with a dash give a range or band.

{"compound": "O=C1/C(=C\\c2ccc(Cl)c(OC(F)(F)F)c2)SC(=S)N1NS(=O)(=O)c1ccccc1", "value": "≤30 µM"}
{"compound": "O=C1/C(=C\\c2ccc(Cl)cc2)SC(=S)N1NS(=O)(=O)c1ccccc1", "value": "0.54 µM"}
{"compound": "CSc1nc(Nc2ccc(N3CCOCC3)cc2)cc(N2CCN(C(=O)OC(C)C)CC2)n1", "value": "<0.1 µg/mL"}
{"compound": "C[C@@]1(O)[C@H](O)[C@@H](CO)O[C@H]1n1ccc2c(=O)[nH]c(N)nc21", "value": "<100 µM"}
{"compound": "O=C1NC(=S)SC1=Cc1ccccc1Cl", "value": "≤30 µM"}
{"compound": "C[C@@]1(O)[C@H](O)[C@@H](CO)O[C@H]1n1cnc2c(=O)[nH]c(N)nc21", "value": "0.13 µM"}
{"compound": "O=C(O)COc1ccc2[nH]cc(CC(NC(=O)c3ccc4c(c3)nc(-c3ccoc3)n4C3CCCCC3)C(=O)O)c2c1", "value": "<1 µM"}
{"compound": "CC(C)CCn1c(=O)c(C2=NCCS(=O)(=O)N2)c(O)c2ccccc21", "value": "0.08 µM"}
{"compound": "COC(=O)[C@H](C)NP(=O)(OC[C@H]1O[C@@H](n2ccc3c(=O)[nH]c(N)nc32)[C@](C)(O)[C@@H]1O)Oc1ccccc1", "value": "<100 µM"}
{"compound": "CCC[C@]1(CC(=O)O)OCCc2c1[nH]c1c(Cl)ccc(Cl)c21", "value": "0.06 µM"}
{"compound": "COC(=O)[C@H](Cc1c[nH]c2ccc(O)cc12)NC(=O)c1ccc2c(c1)nc(-c1ccccn1)n2C1CCCCC1", "value": "<1 µM"}
{"compound": "N#CCCCOc1ccccc1/C(O)=C/C(=O)C(=O)O", "value": "0.4 µM"}
{"compound": "COC(=O)[C@H](C)NP(=O)(OC[C@H]1O[C@@H](n2ccc3c(N)nc(N)nc32)[C@](C)(O)[C@@H]1O)Oc1ccccc1", "value": "<100 µM"}
{"compound": "O=C(O)COc1ccc(C[C@@H](NC(=O)Cc2ccc3c(c2)nc(-c2ccccn2)n3C2CCCCC2)C(=O)O)cc1", "value": "5–10 µM"}
{"compound": "C[C@@]1(O)[C@H](O)[C@@H](CO)O[C@H]1n1cnc2c(N)ncnc21", "value": "<100 µM"}
{"compound": "O=C1/C(=C\\c2ccc(Cl)cc2)SC(=S)N1NS(=O)(=O)c1ccccc1", "value": "≤30 µM"}
{"compound": "CN(C)CCCNC(=O)COc1ccc(-c2nc3cc(C(=O)O)ccc3n2C2CCCCC2)cc1", "value": "10–25 µM"}
{"compound": "CS(=O)(=O)NN1C(=O)/C(=C\\c2cc(F)c(F)cc2F)SC1=S", "value": "≤30 µM"}
{"compound": "O=C(N[C@@H](Cc1cc2ccccc2[nH]1)C(=O)O)c1ccc2c(c1)nc(-c1ccoc1)n2C1CCCCC1", "value": "1–5 µM"}

The last 2 rows once more:

compound	value
CS(=O)(=O)NN1C(=O)/C(=C\c2cc(F)c(F)cc2F)SC1=S	≤30 µM
O=C(N[C@@H](Cc1cc2ccccc2[nH]1)C(=O)O)c1ccc2c(c1)nc(-c1ccoc1)n2C1CCCCC1	1–5 µM